Pooled drug test results. Numbers come from NIAID ChemDB, via PubChem.

All rows: growth or infection tests; agent: Mycobacterium tuberculosis

ECn is the concentration giving n% inhibition of infection, replication or growth.

compound,read by,endpoint,mutations,strain,dose,result
Cc1nc(Nc2ccccc2)sc1C(=O)NNC(N)=O,resazurin,MIC bound,-,H37Rv,-,>6.25 µg/mL
CC1=C(C(=O)Nc2ccccc2Cl)C(c2ccccc2O)C(C(=O)Nc2ccccc2Cl)=C(C)N1,-,MIC,-,H37Rv,-,>12.5 µg/mL
NCC[C@H](O)C(=O)N[C@@H]1C[C@H](N)[C@@H](O[C@H]2O[C@H](CN)[C@@H](O)[C@H](O)[C@H]2O)[C@H](O)[C@H]1O[C@H]1O[C@H](CO)[C@@H](O)[C@H](N)[C@H]1O,-,MIC,-,3S,-,2.5 µg/mL
O=C(NCC(c1cccs1)N1CCCCC1)c1cccs1,resazurin,MIC,-,18b,-,8 µg/mL
COC1/C=C\C=C(/C)C(=O)Nc2cc3nc4ccc(Br)cc4oc-3c(c2=O)CC(C)CC(OC)C(O)C(C)/C=C(\C)C1OC(N)=O,-,MIC,-,TAC-R,-,12.5 µg/mL
O=C(N/N=C/c1cccc(C(F)(F)F)c1)c1ccncc1,-,MIC,-,Erdman,-,0.2 µg/mL
CN(Cc1ccccc1)C(=S)S,BACTEC,inhibition,-,H37Rv,12.5 µg/mL,9%
CC(CNCCC(c1ccccc1)c1ccccc1)N[C@@H]1C[C@@H]2C[C@H]([C@H]1C)C2(C)C,-,MIC,-,-,-,50 µM
CC1(C)C[C@H]2[C@@H](C1)[C@@H](C(CCO)NCCCCCCCNC(CCO)[C@H]1O[C@@H]3CC(C)(C)C[C@@H]3[C@H]3CC(C)(C)C[C@H]31)O[C@@H]1CC(C)(C)C[C@H]21,-,MIC,-,H37Rv,-,12.5 µg/mL
NNC(=O)c1ccncc1,resazurin,MIC,INH RIF resistant,Clinical isolate 309,-,6.25 µg/mL
CC(=O)Oc1ccccc1C(=O)Nc1ncc([N+](=O)[O-])s1,visual reading,MIC,-,ND,-,20 µg/mL
O=C1NNC(=O)c2ccccc2C(=O)S1,BACTEC,MIC bound,-,H37Rv,-,>12.5 µg/mL
C[C@]1(COc2ccc(N3CCC(Oc4ccc(OC(F)(F)F)cc4)CC3)cc2)Cn2cc([N+](=O)[O-])nc2O1,-,MIC,-,ATCC 35820 (H37RV-S-R),-,0.012 µg/mL
[Cl-].[Cl-].c1ccc([P+](Cc2ccc(C[P+](c3ccccc3)(c3ccccc3)c3ccccc3)s2)(c2ccccc2)c2ccccc2)cc1,BACTEC,MIC bound,-,H37Rv,-,>12.5 µg/mL
O=S(=O)(Cc1cn(-c2ccc(C(F)(F)F)cc2)nn1)C1c2ccccc2-c2ccccc21,broth dilution,MIC99,-,H37Rv,-,110 µM
CC(NNC(=O)c1ccncc1)c1ccc(F)cc1,-,MIC,-,Thiacetazone-resistant,-,>50 µg/mL
CCOC(=O)C[C@H](NCCCCCCCCCN[C@@H](CC(=O)OCC)[C@H]1O[C@@H]2CC(C)(C)C[C@@H]2[C@H]2CC(C)(C)C[C@H]21)[C@H]1O[C@@H]2CC(C)(C)C[C@@H]2[C@H]2CC(C)(C)C[C@H]21,-,MIC,-,H37Rv,-,25 µg/mL
Cc1nccn1Cc1nc(-c2ccc(C(F)(F)F)cc2)no1,resazurin,MIC,-,18b,-,16 µg/mL
O=S(=O)(Cc1cn(-c2ccccc2)nn1)C1c2ccccc2-c2ccccc21,broth dilution,MIC99,-,Specimen 192,-,>258 µM
O=C(NNCc1ccccc1)c1ccncc1,-,MIC,-,H37Rv (thiacetazone-resistant),-,>31.25 µg/mL
O=[N+]([O-])c1ccccc1-n1cc(CNC2c3ccccc3-c3ccccc32)nn1,broth dilution,MIC99,-,H37Rv,-,261 µM
CC1(C)C[C@H]2[C@@H](C1)[C@@H]([C@H](CCO)NCCCCCCCCN[C@@H](CCO)[C@H]1O[C@@H]3CC(C)(C)C[C@@H]3[C@H]3CC(C)(C)C[C@H]31)O[C@@H]1CC(C)(C)C[C@H]21,-,MIC,-,H37Rv,-,25 µg/mL
Cc1ccc(Cl)cc1N=c1c([N+](=O)[O-])nn(-c2ccccc2)n1O,resazurin,MIC,-,18b,-,4 µg/mL
CC(C)=CCC/C(C)=C/CNCCNC(C)C12CC3CC(CC(C3)C1)C2,-,MIC,-,-,-,25 µM
O=c1sc(N=Nc2ccccc2)nn1-c1ccccc1,BACTEC,inhibition,-,H37Rv,12.5 µg/mL,-10%
CCOC(=O)C[C@H](NCCCCCCCCCCCCN[C@@H](CC(=O)OCC)C1O[C@@H]2OC(C)(C)O[C@@H]2[C@H]1OCc1ccccc1)C1O[C@@H]2OC(C)(C)O[C@@H]2[C@H]1OCc1ccccc1,-,MIC,-,H37Rv,-,>50 µg/mL
COc1cc(C2C(C(=O)Nc3ccc(F)cc3)=C(C)NC(C)=C2C(=O)Nc2ccc(F)cc2)cc(OC)c1OC,-,MIC,-,H37Rv,-,>6.25 µg/mL
C[CH2][Sn]1([CH2]C)[O]C(=O)[O][Sn]([CH2]C)([CH2]C)[O]1,BACTEC,MIC,-,H37Rv,-,≥128 µg/mL
O=C(NNCc1ccccc1F)c1ccncc1,-,MIC,-,H37Rv,-,0.2 µg/mL
CCOC(=O)Nc1cc2oc(-c3ccc(Cl)cc3)nc2c(N(CCc2ccccc2)Cc2ccccc2)n1,-,EC50,-,H37Rv,-,>12.5 µg/mL
CCOC(=O)C[C@H](NCCCCCCCN[C@@H](CC(=O)OCC)C1O[C@@H]2OC(C)(C)O[C@@H]2[C@H]1OCc1ccccc1)C1O[C@@H]2OC(C)(C)O[C@@H]2[C@H]1OCc1ccccc1,-,MIC,-,H37Rv,-,25 µg/mL
CO[C@H]1/C=C/O[C@@]2(C)Oc3c(C)c(O)c4c(=O)c(c5oc6cc(N7CCN(CC(C)C)CC7)cc(=O)c6nc5c4c3=C2O)NC(=O)/C(C)=C\C=C\[C@H](C)[C@H](O)[C@@H](C)[C@@H](O)[C@@H](C)[C@H](OC(C)=O)[C@@H]1C,-,MBC,-,9 (rifampin-resistant),-,0.025 µg/mL
CCOC(=O)Nc1cc(NC(C)[C@@H](O)c2ccc(O)cc2)c(N)c(N)n1,-,EC50,-,H37Rv,-,>12.5 µg/mL
O=C1CN(CO)C(=O)N1CO,BACTEC,MIC bound,-,H37Rv,-,>12.5 µg/mL
CO[C@H]1/C=C/O[C@@]2(C)Oc3c(C)c(O)c4c(O)c(c(/C=N/N5CCN(C6CCCC6)CC5)c(O)c4c3C2=O)NC(=O)/C(C)=C\C=C\[C@H](C)[C@H](O)[C@@H](C)[C@@H](O)[C@@H](C)[C@H](OC(C)=O)[C@@H]1C,-,MBC,-,Erdman,-,0.5 µg/mL
O=C(N/N=C/c1cccc(F)c1)c1ccncc1,-,MIC,-,H37Rv,-,0.05 µg/mL
COc1cc(-n2cc(CNC3c4ccccc4-c4ccccc43)nn2)cc(OC)c1OC,broth dilution,MIC99,-,Specimen 192,-,58.34 µM
O=C1COCC(=O)OCCOCCSCCOCCO1,BACTEC,MIC bound,-,H37Rv,-,>12.5 µg/mL
CCOC(=O)Nc1cc(N/N=C/c2ccccc2)c(N)c(N)n1,-,EC50,-,H37Rv,-,<12.5 µg/mL
Cc1ccc(C2=Nn3c(nnc3C(C)C)SC2)cc1,resazurin,MIC,-,Clinical isolate,-,4 µg/mL
COc1cc(C2C(C(=O)Nc3ccc([N+](=O)[O-])cc3)=C(C)NC(C)=C2C(=O)Nc2ccc([N+](=O)[O-])cc2)cc(OC)c1OC,-,MIC,-,H37Rv,-,>6.25 µg/mL
CO[C@H]1/C=C/O[C@@]2(C)Oc3c(C)c(O)c4c(O)c(c5c(c4c3C2=O)NC2(CCN(CC(C)C)CC2)N=5)=NC(=O)/C(C)=C\C=C\[C@H](C)[C@H](O)[C@@H](C)[C@@H](O)[C@@H](C)[C@H](OC(C)=O)[C@@H]1C,-,MIC,-,H37Rv,-,0.062 µg/mL
COC(=O)[C@]1(C)CCC[C@]2(C)C3=CC(O)[C@@]4(C(C)C)O[C@H]4[C@]3(O)CC[C@@H]12,BACTEC,MIC,-,H37Rv,-,≥12.5 µg/mL
CO[C@H]1/C=C/O[C@@]2(C)Oc3c(C)c(O)c4c(O)c(c(/C=N/N5CCN(C)CC5)c(O)c4c3C2=O)NC(=O)/C(C)=C\C=C\[C@H](C)[C@H](O)[C@@H](C)[C@@H](O)[C@@H](C)[C@H](OC(C)=O)[C@@H]1C,-,MIC,-,9S,-,1 µg/mL
CC1=C(C)C(=O)C(CC2=C(C)C(=O)C(C)=C(C)C2=O)=C(C)C1=O,-,MIC,-,CS-R,-,16 µg/mL
CCOC(=O)C[C@H](NCCCCCCCCN[C@@H](CC(=O)OCC)C1O[C@@H]2OC(C)(C)O[C@@H]2[C@H]1OCc1ccccc1)C1O[C@@H]2OC(C)(C)O[C@@H]2[C@H]1OCc1ccccc1,-,MIC,-,H37Rv,-,6.25 µg/mL
COc1cc2c(c(OC)c1OC)CCC/C2=N\NC(N)=S,resazurin,inhibition,-,H37Rv,6.25 µg/mL,84%
CC1=C(C(=O)Nc2ccc(F)cc2)C(c2cccc(Br)c2)C(C(=O)Nc2ccc(F)cc2)=C(C)N1,-,MIC,-,H37Rv,-,>6.25 µg/mL
O=C(NNCc1cccc(C(F)(F)F)c1)c1ccncc1,-,MIC,-,H37Rv,-,0.2 µg/mL
CC1C2=C(C(=O)N1Cc1ccccc1)C([C@@H]1O[C@H](COC(=O)c3ccccc3)[C@@H](OC(=O)c3ccccc3)[C@H]1OC(=O)c1ccccc1)C(=O)N(C)C2=O,BACTEC,inhibition,-,H37Rv,12.5 µg/mL,-1%
CCOC(=O)Nc1cc(NC(=O)OCC)c([N+](=O)[O-])c(NC(c2ccccc2)c2ccccc2)n1,-,EC50,-,H37Rv,-,>12.5 µg/mL
CO[C@H]1/C=C/O[C@@]2(C)Oc3c(C)c(O)c4c(O)c(c(/C=N/N5CCN(C/C=C/c6ccccc6)CC5)c(O)c4c3C2=O)NC(=O)/C(C)=C\C=C\[C@H](C)[C@H](O)[C@@H](C)[C@@H](O)[C@@H](C)[C@H](OC(C)=O)[C@@H]1C,-,MIC,-,2275 (rifampin-resistant),-,0.4 µg/mL
Cc1ccc(N=Cc2c(O)c(O)c(C(C)C)c3cc(C)c(-c4c(C)cc5c(C(C)C)c(O)c(O)c(C=Nc6ccc(C)c(F)c6)c5c4O)c(O)c23)cc1F,BACTEC,inhibition,-,H37Rv,12.5 µg/mL,0%
CCCCNC(=O)Oc1ccc(C2=Nc3c(cc(NC(=O)OCC)nc3N)N[C@H]2C)cc1,-,EC50,-,H37Rv,-,>12.5 µg/mL
O=C(O)c1[nH]c2ccccc2c1CNCCc1ccc(Cl)cc1,resazurin,MIC,-,Clinical isolate,-,16 µg/mL
O=C(NC(Cc1ccc(O)cc1)C(=O)NC(CO)C(=O)O)OCc1ccccc1,BACTEC,MIC bound,-,H37Rv,-,>12.8 µg/mL
C/C(=N\NC(=O)c1ccncc1)c1ccccc1F,-,MBC,-,H37Rv,-,1.56 µg/mL
N#Cc1c(C#N)c(-c2ccco2)n(/N=C/c2ccco2)c1N,resazurin,MIC bound,-,H37Rv,-,>6.25 µg/mL
CC1COc2c(N3CCN(C)CC3)c(F)cc3c(=O)c(C(=O)O)cn1c23,agar,MIC,-,SMI 15,-,4 µg/mL
COc1ccccc1C1C(C(=O)Nc2ccccc2)=C(C)NC(C)=C1C(=O)Nc1ccccc1,-,MIC,-,H37Rv,-,>12.5 µg/mL
CC(NNC(=O)c1ccncc1)c1ccc(Cl)c(Cl)c1,-,MIC,-,H37Rv (rifampin-resistant),-,1.96 µg/mL
CC1=C(C(=O)Nc2ccc(F)c(Cl)c2)C(c2ccccc2Cl)C(C(=O)Nc2ccc(F)c(Cl)c2)=C(C)N1,-,MIC,-,H37Rv,-,>6.25 µg/mL
CO[C@H]1/C=C/O[C@@]2(C)Oc3c(C)c(O)c4c(O)c(c(/C=N/N5CCN(C)CC5)c(O)c4c3C2=O)NC(=O)/C(C)=C\C=C\[C@H](C)[C@H](O)[C@@H](C)[C@@H](O)[C@@H](C)[C@H](OC(C)=O)[C@@H]1C,-,MIC,-,TN798,-,>32 µg/mL
CC1c2nc(N)nc(N)c2CN1C(=O)c1ccccc1,BACTEC,inhibition,-,H37Rv,12.5 µg/mL,-13%
Clc1ccc(CCNCCNC2CCc3ccccc32)c(Cl)c1,-,MIC,-,-,-,50 µM
COC(=O)C1=C(C)N(c2ccc(OC)cc2)C(C)=C(C(=O)OC)C1c1ccc(OC)cc1,-,MIC,-,H37Rv,-,>6.25 µg/mL
CCOc1c(N=Nc2ccc([N+](=O)[O-])cc2)c(C)nn1C(=S)S,BACTEC,MIC bound,-,H37Rv,-,>12.5 µg/mL
CCC(CC)C(=O)Nc1occ2c1CC(C)CC2,resazurin,MIC,-,18b,-,16 µg/mL
COc1cc([C@H]2OC[C@H]3[C@@H]2CO[C@]3(C)c2ccc(OC(C)=O)c(OC)c2)ccc1OC(C)=O,BACTEC,inhibition,-,H37Rv,12.5 µg/mL,0%
O=C(N/N=C/c1ccccc1F)c1ccncc1,-,MIC,-,Ethambutol-resistant,-,0.05 µg/mL
CC(C)(C)c1ncc(CCCN=C(N)N)[nH]c1=O,-,MIC,-,CS-R,-,0.4 µg/mL
CC(C)c1ccc2c(c1)CC[C@H]1[C@](C)(CNCCNC3CCCCCCC3)CCC[C@]21C,-,MIC,-,-,-,25 µM

Again, the opening 5 rows:

compound | read by | endpoint | mutations | strain | dose | result
Cc1nc(Nc2ccccc2)sc1C(=O)NNC(N)=O | resazurin | MIC bound | - | H37Rv | - | >6.25 µg/mL
CC1=C(C(=O)Nc2ccccc2Cl)C(c2ccccc2O)C(C(=O)Nc2ccccc2Cl)=C(C)N1 | - | MIC | - | H37Rv | - | >12.5 µg/mL
NCC[C@H](O)C(=O)N[C@@H]1C[C@H](N)[C@@H](O[C@H]2O[C@H](CN)[C@@H](O)[C@H](O)[C@H]2O)[C@H](O)[C@H]1O[C@H]1O[C@H](CO)[C@@H](O)[C@H](N)[C@H]1O | - | MIC | - | 3S | - | 2.5 µg/mL
O=C(NCC(c1cccs1)N1CCCCC1)c1cccs1 | resazurin | MIC | - | 18b | - | 8 µg/mL
COC1/C=C\C=C(/C)C(=O)Nc2cc3nc4ccc(Br)cc4oc-3c(c2=O)CC(C)CC(OC)C(O)C(C)/C=C(\C)C1OC(N)=O | - | MIC | - | TAC-R | - | 12.5 µg/mL

MIC bound comes from a single tested concentration. Blank or dashed fields: not listed here. MIC50, MIC90 and the like: level of inhibition, or share of isolates inhibited. Percent inhibition refers to the dose given; in toxicity tests it is the harm to the cells. Lines come from different laboratories, so protocols vary.